Pooled drug test results. Numbers come from NIAID ChemDB, via PubChem.

All rows: growth or infection tests; agent: HIV-1; measure: EC50

ECn: concentration that inhibits the pathogen or its effect by n%. Rows are shuffled and stem from different studies. Blank or dashed fields: not listed here. Two numbers with a dash give a range or band.

SMILES | strain or isolate | read by | mutations | cell line | value
COc1cc2c(c3oc(=O)c(C)c(C)c13)[C@@H](OC(=O)C13CCC(C)(C(=O)O1)C3(C)C)[C@@H](OC(=O)C13CCC(C)(C(=O)O1)C3(C)C)C(C)(C)O2 | IIIB | cytopathic effect / XTT |  | MT-4 | 2.94 µM
Cc1c(OCC2CCC2)c2cc(F)ccc2[nH]c1=O | NNRTI-resistant (RT V108I Y181C) | β-galactosidase | RT-V108I Y181C | HeLa + HeLa-MAGI | >2 µM
Cc1cc(C)cc(Sc2c(C(=O)NNCCO)[nH]c3ccc(Cl)cc23)c1 |  | cytopathic effect / MTT | RT-K103N Y181C | MT-4 | 6.7 µM
O=C(Nc1ccc(O)cc1)c1ccccc1SSc1ccccc1C(=O)Nc1ccc(O)cc1 |  | cytopathic effect / XTT |  | CEM | >33 µM
Cc1ncn(Nc2cccc(Cl)c2)c1C | NL4-3 | cytopathic effect / MTT |  | MT-4 | >214 µM
CC(C)[C@H](N)C(=O)N(Cc1ccccc1)CC(O)C(Sc1ccccc1)N(Cc1ccccc1)C(=O)[C@@H](N)C(C)C | LAV | syncytia |  | MT-4 | 10 µM
Cc1c(C[N+](=O)[O-])c(=O)oc2c3c(ccc12)OC(C)(C)[C@H](OC(=O)C12CCC(C)(C(=O)O1)C2(C)C)[C@@H]3OC(=O)C12CCC(C)(C(=O)O1)C2(C)C | IIIB | cytopathic effect / XTT |  | MT-4 | 0.0905 µM
C=CCOC(=S)Nc1ccc(Cl)c(C(=O)OC(C)C)c1 | IIIB | syncytia |  | CEM | 0.19 µM
C[C@@]12CCC[C@@](C)(C(=O)O)[C@H]1CC[C@@]13C[C@@H](CC[C@H]12)[C@@](O)(CO)C3 | IIIB | p24 |  | H9 | >100 µg/mL
NC(=O)c1ccc(NC(=O)c2ccccc2SSc2ccccc2C(=O)Nc2ccc(C(N)=O)cc2)cc1 |  | cytopathic effect / XTT |  | CEM | 2.3 µM
CC(C)OC(=S)Nc1ccc(Cl)c(C(=O)OCc2ccccc2)c1 | IIIB | syncytia |  | CEM | 0.962 µM
CC(C)[C@H](NC(=O)N(C)c1ccccc1)C(=O)NC(Sc1ccccc1)C(O)C(NC(=O)[C@@H](NC(=O)N(C)c1ccccc1)C(C)C)Sc1ccccc1 | LAV | syncytia |  | MT-4 | >10 µM
Cc1cc(C)cc(Nn2c(-c3ccccc3)c(C)[nH]c2=S)c1 | NL4-3 | cytopathic effect / MTT |  | MT-4 | 0.87 µM
CC(C)OC(=O)Oc1cc(NC(=S)OC(C)C)ccc1Cl | IIIB | syncytia |  | CEM | 1.205 µM
CCOC(=O)N(Cc1ccccc1)CC(O)C(Sc1ccccc1)N(Cc1ccccc1)C(=O)OCC | LAV | syncytia |  | MT-4 | >50 µM
CC(C)OC(=S)Nc1ccc(Cl)c(C(=O)OC(C(C)C)C(C)C)c1 |  | syncytia | RT-V106A | CEM | ≥2.689 µM
C[C@@]12CCC[C@@](C)(O)[C@H]1CC[C@@]13C[C@@H](CC[C@H]12)[C@H](C(=O)O)C3 | IIIB | p24 |  | H9 | >100 µg/mL
CCC(CC)COC(=O)c1cc(NC(=S)OC(C)C)ccc1Cl |  | syncytia | RT-L100I | CEM | 1.397 µM
C#CCOCn1c(Cc2cccc(C(F)(F)F)c2)c(C(C)C)c(=O)[nH]c1=O | A17 | MTT | K103N + Y181C | MT-4 | 11 µM
COC(=S)Nc1ccc(Cl)c(C(=O)OC(C)C)c1 |  | syncytia | RT-L100I | CEM | ≥34.75 µM
O=C(O)CNC(=O)c1ccccc1SSc1ccccc1C(=O)NCC(=O)O |  | cytopathic effect / XTT |  | CEM | 51 µM
CC1=C(C(=O)Nc2ccc(Cl)c(C(=O)OC(C)C)c2)SCCO1 |  | syncytia | RT-V106A | CEM | >56.2 µM
Cc1ccccc1S(=O)(=O)c1c(C(=O)NCCO)[nH]c2ccc(Cl)cc12 |  | cytopathic effect / MTT | RT-K103N Y181C | MT-4 | 12 µM
O=C(NNC(=O)c1ccccc1SSc1ccccc1C(=O)NNC(=O)c1ccncc1)c1ccncc1 |  | cytopathic effect / XTT |  | CEM | 8.2 µM
Cc1cccc(S(=O)(=O)c2c(C(=O)NCCO)[nH]c3ccc(Cl)cc23)c1 |  | cytopathic effect / MTT | RT-K103N Y181C | MT-4 | 1.1 µM
CC(C)=CCOc1cc(NC(=S)c2ccoc2C)ccc1Cl | Isolate NL4-3 | cytopathic effect / XTT |  | CEM + CEM-SS | 0.006 µM
C=CCSc1cc(NC(=S)OC(C)C)ccc1Cl |  | syncytia | RT-E138K | CEM | 0.287 µM
O=C(Nc1ncccn1)c1ccccc1SSc1ccccc1C(=O)Nc1ncccn1 |  | cytopathic effect / XTT |  | CEM | >6.2 µM
Cc1[nH]c(=S)n(Nc2ccccc2)c1-c1ccccc1 | NL4-3 | cytopathic effect / MTT |  | MT-4 | >191 µM
C[C@@]12CCC[C@@](C)(C(=O)O)C1CCC13C[C@@H](CO)[C@@H](CCC12)C3 | IIIB | p24 |  | H9 | >100 µg/mL
CC(C)OC(=O)Nc1ccc(Cl)c(C(=O)OC(C)C)c1 |  | syncytia | RT-V106A | CEM | >33.36 µM
O=C(NCCO)c1[nH]c2ccc(Cl)cc2c1S(=O)(=O)c1ccccc1 | IIIB | cytopathic effect / MTT |  | C8166 | 0.002 µM
CC(C)OC(=O)c1cc(NC(=S)OC(C)C)ccc1Cl |  | syncytia | RT-L100I | CEM | 2.06 µM
Cc1c(COC(N)=O)c(=O)oc2c3c(ccc12)OC(C)(C)[C@H](OC(=O)C12CCC(C)(C(=O)O1)C2(C)C)[C@@H]3OC(=O)C12CCC(C)(C(=O)O1)C2(C)C | IIIB | cytopathic effect / XTT |  | MT-4 | 2.12 µM
Cc1ccc(Sc2c(C(=O)NCCO)[nH]c3ccc(Cl)cc23)c(C)c1 | IIIB | cytopathic effect / MTT |  | C8166 | 0.6 µM
CCOC(=O)c1cc(NC(=S)OC(C)C)ccc1C | IIIB | syncytia |  | CEM | 0.011 µM
CC(C)(C)OC(=O)N(Cc1ccccc1)CC(O)C(Sc1ccccc1)N(Cc1ccccc1)C(=O)OC(C)(C)C | LAV | syncytia |  | MT-4 | 0.1–1 µM
Cc1cccc(Sc2c(C(=O)NCCO)[nH]c3ccc(Cl)cc23)c1 | IIIB | cytopathic effect / MTT |  | MT-4 | 0.08 µM
CC(C)=CCOc1cc(NC(=S)c2ccsc2C)ccc1Cl | NL4-3 (RT L100I) | cytopathic effect / XTT | RT-L100I | CEM + CEM-SS | 0.2 µM
C=C(C)COCn1c(Cc2cccc(F)c2)c(CC)c(=O)[nH]c1=O | EFV-resistant (K103R V179D P225H) | MTT |  | MT-4 | >100 µM
CCC(CC)OC(=O)c1cc(NC(=S)OC(C)C)ccc1Cl |  | syncytia | RT-E138K | CEM | 1.745 µM
C#CCOCn1c(Cc2cc(F)ccc2F)c(CC)c(=O)[nH]c1=O | N119 (Y181C) | MTT |  | MT-4 | 17 µM
O=C(NNCCO)c1[nH]c2ccc(Cl)cc2c1S(=O)(=O)c1ccccc1 | BAL R5 | p24 |  | Macrophage + Macrophages | 0.9 µM
CCOC(=O)c1cc(NC(=S)OC(C)C)ccc1SC |  | syncytia | RT-E138K | CEM | 12.76 µM
Cc1c(CC#N)c(=O)oc2c3c(ccc12)OC(C)(C)[C@H](OC(=O)C12CCC(C)(C(=O)O1)C2(C)C)[C@@H]3OC(=O)C12CCC(C)(C(=O)O1)C2(C)C | IIIB | cytopathic effect / XTT |  | MT-4 | 2.96 µM
CC(=O)COc1cc(NC(=S)OC(C)C)ccc1Cl |  | syncytia | RT-V106A | CEM | 16.57 µM
CCOCn1c(Cc2cc(C(F)(F)F)cc(C(F)(F)F)c2)c(CC)c(=O)[nH]c1=O | EFV-resistant (K103R V179D P225H) | MTT |  | MT-4 | >100 µM
Cc1ccccc1OC(=O)c1cc(NC(=S)OC(C)C)ccc1Cl | IIIB | syncytia |  | CEM | 1.099 µM
Cc1cc(C)cc(Sc2c(C(=O)NCCO)[nH]c3ccc(Cl)cc23)c1 | BAL R5 | p24 |  | Macrophage + Macrophages | 0.8 µM
CC[C@@H](C)OC(=S)Nc1ccc(Cl)c(C(=O)OC(C)C)c1 |  | syncytia | RT-E138K | CEM | 0.273 µM
CN(C[C@@H](CCN1CCC(CCCc2ccccc2)CC1)c1cccc(Cl)c1)S(=O)(=O)c1ccccc1 | YU2 | p24 |  | PBMC | <50 µM
CCCOC(=S)Nc1ccc(Cl)c(C(=O)OC(C)C)c1 |  | syncytia | RT-V106A | CEM | 17.41 µM
Cc1cn([C@H]2C=C[C@@H](CO)O2)c(=O)[nH]c1=O | RD 02-RT-210W 215C Recombinant | cytopathic effect / MTT |  | MT-4 | 0.33 µM
Cc1[nH]c(=S)n(Nc2cccc(F)c2)c1-c1ccccc1 | SO561945 (RT K103N Y181C) | cytopathic effect / MTT | RT-K103N Y181C | MT-4 | ≥43.42 µM
CSCCOC(=S)Nc1ccc(Cl)c(C(=O)OC(C)C)c1 | IIIB | syncytia |  | CEM | 1.294 µM
CCc1c(OCC2CCC2)c2cc(F)ccc2[nH]c1=O | NNRTI-resistant (RT K103N G190A) | β-galactosidase | RT-K103N G190A | HeLa + HeLa-MAGI | 1.1 µM

A second listing of 3 rows from above:

SMILES,strain or isolate,read by,mutations,cell line,value
CN(C[C@@H](CCN1CCC(CCCc2ccccc2)CC1)c1cccc(Cl)c1)S(=O)(=O)c1ccccc1,YU2,p24,,PBMC,<50 µM
CC(=O)COc1cc(NC(=S)OC(C)C)ccc1Cl,,syncytia,RT-V106A,CEM,16.57 µM
CC(C)[C@H](NC(=O)N(C)c1ccccc1)C(=O)NC(Sc1ccccc1)C(O)C(NC(=O)[C@@H](NC(=O)N(C)c1ccccc1)C(C)C)Sc1ccccc1,LAV,syncytia,,MT-4,>10 µM